Assay results reported in patent US10184933B2, “Compositions, systems and methods for gene expression noise drug screening and uses thereof” (priority 2013, dated 2019).

Legend:
[1] = system: latent HIV-1 in JLat 8.6 cells; assay: HIV-1 latency reactivation in JLat 8.6 cells; type: cell-based; conditions: with one or more of PMA, prostratin, TNFα, and bryostatin; FIG. 11
HIV-1 LTR promoter = conditions: Pharmakon 1600 library, 10 uM, 24 hours, FIG. 10

Substance: sodium monofluorophosphate
- synergy in reactivation of HIV-1 latency [1]: synergized
- identified as variability enhancer (VE) in noise screen (HIV-1 LTR promoter): variability enhancers
